# Source: PubChem BioAssay AID624099 (ICCB-Longwood, 2012)
# Test: 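Knock-downs relieving repression by E2 of an HPV18 LCR luciferase reporter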 (primary screen)
# Cells: human C33A cervical carcinoma cells (HPV-negative) stably expressing BPV1 E2 and an HPV18 LCR luciferase reporter
# Knock-down reagent: siRNA pool against human genes, 40 nM
# Timing: 72 h
# Detection: 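HPV18 LCR reporter light per well, converted to plate-wise z-scores that exclude control wells, and averaged over triplicate plates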
# Reading the numbers: mean z-score and z-score: higher = stronger reporter signal, weaker E2 silencing
# Hit rule: 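Mean z ≥ 2 together with z ≥ 2 in two or more of the three replicates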
# The whole screen tested about 21,000 reagents; this is a random part of them. In the full data, 497 (2.4%) are marked active. 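Higher z means weaker E2 silencing; only reporter increases were scored, and knock-downs that hurt cell survival may mask genuine repressor factors.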 Unmarked entries are inactive.
Target gene,PubChem SID,mean z-score,"z-score, replicate A","z-score, replicate B","z-score, replicate C"
SLC5A4 (GeneID 6527),SID134312638,-0.37,-0.22,-0.47,-0.42
SPAG6 (GeneID 9576),SID134316750,-0.01,-0.01,-0.2,0.18
ZBTB7A (GeneID 51341),SID134324459,-0.2,-0.26,-0.08,-0.26
ECM2 (GeneID 1842),SID134315609,-0.55,-0.67,-0.52,-0.47
CPSF6 (GeneID 11052),SID134316612,1.06,1.17,1.15,0.87
EXOC4 (GeneID 60412),SID134317307,0.6,0.13,0.55,1.12
ZNF484 (GeneID 83744),SID134326489,0.51,0.48,0.55,0.51
CCL7 (GeneID 6354),SID134312783,-0.53,-0.69,-0.47,-0.43
ACTRT3 (GeneID 84517),SID134319432,-1.88,-2.11,-1.73,-1.8
ANKRD7 (GeneID 56311),SID134324583,-0.01,0.37,-0.04,-0.37
LOC401051 (retired record) (GeneID 401051),SID134327298,-0.72,-0.46,-1.33,-0.37
KCND2 (GeneID 3751),SID134311643,-0.84,-1,-0.57,-0.94
GPT (GeneID 2875),SID134329182,0.46,0.43,0.44,0.5
LINC02092 (GeneID 400620),SID134328741,0.89,0.99,1.14,0.54
RUFY3 (GeneID 22902),SID134324054,0.01,-0.13,0.07,0.1
AIRE (GeneID 326),SID134315358,-0.31,-0.09,-0.61,-0.24
STARD3 (GeneID 10948),SID134321584,1.39,1.29,1.11,1.78
PPP1R15A (GeneID 23645),SID134310474,-1.26,-0.89,-1.26,-1.64
ANGPTL3 (GeneID 27329),SID134312746,-0.69,-0.5,-1.06,-0.5
OR12D3 (GeneID 81797),SID134314509,0.81,0.62,0.84,0.97
CCBE1 (GeneID 147372),SID134325727,0.13,0.3,-0.42,0.52
TRIM45 (GeneID 80263),SID134312196,-0.19,-0.05,-0.37,-0.13
PSD (GeneID 5662),SID134324975,0.52,0.28,0.51,0.77
USP49 (GeneID 25862),SID134311370,-1.17,-1.13,-1.14,-1.25
LOC401034 (retired record) (GeneID 401034),SID134327278,-0.02,0.09,-0.31,0.16
BTN3A1 (GeneID 11119),SID134322917,1.52,1.76,1.46,1.35
DNAJA4 (GeneID 55466),SID134323186,0.89,0.93,0.81,0.92
RASAL3 (GeneID 64926),SID134328990,0.68,0.64,0.97,0.43
SURF1 (GeneID 6834),SID134316104,1.69,1.15,1.97,1.95
KIF11 (GeneID 3832),SID134309845,-0.99,-1.2,-1.02,-0.75
PPP1R13B (GeneID 23368),SID134314994,-0.12,-0.16,-0.02,-0.17
PCTP (GeneID 58488),SID134317994,-1.44,-0.61,-1.72,-1.99
OSTM1 (GeneID 28962),SID134324976,-0.27,-0.21,-0.19,-0.41
MAGED2 (GeneID 10916),SID134321226,0.97,1.13,0.94,0.83
OTC (GeneID 5009),SID134314053,-0.78,-0.69,-0.74,-0.91
TANC1 (GeneID 85461),SID134325602,-0.1,0.19,-0.15,-0.33
SPACA7 (GeneID 122258),SID134319930,-0.72,-0.77,-0.43,-0.96
FAM241B (GeneID 219738),SID134320289,-0.62,-0.99,-0.64,-0.24
DENND6A (GeneID 201627),SID134320494,0.24,0.22,0.28,0.21
FASTKD2 (GeneID 22868),SID134324130,-0.84,-0.72,-0.9,-0.89
MDH1B (GeneID 130752),SID134325615,0.63,0.32,0.74,0.81
GAA (GeneID 2548),SID134313729,-0.21,-0.05,-0.48,-0.09
TRIQK (GeneID 286144),SID134327991,-1.04,-1.07,-1.14,-0.92
GBA1 (GeneID 2629),SID134311754,0.33,0.34,0.16,0.48
LOC134541 (retired record) (GeneID 134541),SID134326036,-0.3,-0.39,-0.17,-0.33
ZNF564 (GeneID 163050),SID134320884,0.46,0.6,0.09,0.69
SLC4A1 (GeneID 6521),SID134312625,-0.95,-0.97,-0.83,-1.05
OR5K2 (GeneID 402135),SID134329876,-0.03,0.14,-0.09,-0.13
CENPVL3 (GeneID 347549),SID134326143,-0.42,-0.83,-0.19,-0.23
ZSCAN21 (GeneID 7589),SID134324906,1.28,1.17,1.51,1.16
HAL (GeneID 3034),SID134316006,-0.26,-0.16,-0.44,-0.17
CHPF (GeneID 79586),SID134321619,0.02,0.17,0.19,-0.3
UTP6 (GeneID 55813),SID134315078,-2.05,-2.46,-2.16,-1.55
TGDS (GeneID 23483),SID134314227,-0.29,-0.6,-0.08,-0.2
NOL6 (GeneID 65083),SID134321227,-2.32,-2.53,-2.18,-2.24
VWA3A (GeneID 146177),SID134328646,-1.58,-1.5,-1.81,-1.42
CCS (GeneID 9973),SID134313795,-1.06,-1.07,-1.24,-0.87
IGFBP7-AS1 (GeneID 255130),SID134325956,0.68,0.31,0.9,0.83
DUSP1 (GeneID 1843),SID56478660,-0.19,-0.22,-0.12,-0.22
OR4F16 (GeneID 81399),SID134325310,0.48,0.58,0.49,0.37
OR4F16 (GeneID 81399),SID134329897,-1.75,-1.56,-1.83,-1.87
TDRKH (GeneID 11022),SID134323556,-1.52,-1.39,-1.61,-1.56
TRIM9 (GeneID 114088),SID134317217,-0.66,-0.25,-0.6,-1.13
MSL3 (GeneID 10943),SID134316599,0.55,0.61,0.45,0.6
DACH2 (GeneID 117154),SID134319250,1.87,1.55,2.13,1.95
DCLK1 (GeneID 9201),SID56478913,-1.35,-1.24,-1.51,-1.31
BTBD7 (GeneID 55727),SID134326796,1.1,1.04,1.17,1.09
LOC400729 (retired record) (GeneID 400729),SID134327096,-0.15,-0.2,-0.33,0.06
CC2D1A (GeneID 54862),SID134319770,0.94,0.65,1.03,1.13
NBR1 (GeneID 4077),SID134315022,2.02,1.93,2.17,1.96
FSIP2 (GeneID 401024),SID134322032,0.03,0.1,0.17,-0.18
FSIP2 (GeneID 401024),SID134329638,0.06,0.04,0.01,0.12
SETDB1 (GeneID 9869),SID134323811,-0.15,0.12,-0.18,-0.39

Targets listed so far whose gene name begins with A or a (4):
Target gene,PubChem SID,mean z-score,"z-score, replicate A","z-score, replicate B","z-score, replicate C"
ACTRT3 (GeneID 84517),SID134319432,-1.88,-2.11,-1.73,-1.8
ANKRD7 (GeneID 56311),SID134324583,-0.01,0.37,-0.04,-0.37
AIRE (GeneID 326),SID134315358,-0.31,-0.09,-0.61,-0.24
ANGPTL3 (GeneID 27329),SID134312746,-0.69,-0.5,-1.06,-0.5
